Compound potency records, mixed from different reports. Data source: NIAID ChemDB in PubChem.

Shared fields: whole-cell or culture tests; agent: HIV-1; read-out: fold resistance

An empty or dashed field is not shown.

| compound | read by | mutations | cells | strain | value |
|---|---|---|---|---|---|
| CCn1c(=O)c(C)cn([C@@H]2O[C@H](CO[Si](C)(C)C(C)(C)C)C3(OS(=O)(=O)C=C3N)[C@H]2O[Si](C)(C)C(C)(C)C)c1=O | syncytia | RT-L100I Y181C | CEM | IIIB TIBO R82913 STR-1 (RT L100I Y181C) | >1670 |
| Nc1nc2c(ncn2[C@H]2CO[C@@H](CO)O2)c(=O)[nH]1 |  | RT-V75M M184V |  | RT-75M RT-184V | 0.3 |
| Cc1cn([C@H]2C[C@H](N=[N+]=[N-])[C@@H](CO)O2)c(=O)[nH]c1=O | plaque count | RT-D67N K70R T215Y | HT4 + HT4-6C | P026B (RT D67N K70R T215Y) | 280 |
| Cn1c2ccccc2c2c1cc(C#N)c(=O)n2-c1ccc([N+](=O)[O-])cc1 | luciferase | RT-M41L D67N M184V L210W T215Y | HeLa | NRTI resistant | 5.7 |
| Fc1cccc(F)c1C1SCc2nc3ccccc3n21 | cytopathic effect / XTT | RT-Y181C | CEM + CEM-SS | UC040-R (RT-Y181C) | >20.3 |
| O=c1[nH]cnc2c1ncn2[C@H]1CC[C@@H](CO)O1 | syncytia | RT-L100I Y181C | CEM | IIIB TIBO R82913 STR-1 (RT L100I Y181C) | 3 |
| Cc1cn([C@H]2C[C@H](N=[N+]=[N-])[C@@H](CO)O2)c(=O)[nH]c1=O |  | RT-A98G | PBMC | VAU (RT-A98G) | 1 |
| O=c1[nH]c2ccc(Cl)cc2n1Cc1c(F)cccc1F | cytopathic effect | RT-Y181C | CEM |  | >22.7 |
| Cc1cn([C@H]2C[C@H](N=[N+]=[N-])[C@@H](CO)O2)c(=O)[nH]c1=O |  | INTG-Q148K |  |  | 1 |
| Cc1ccnc2c1NC(=O)c1cccnc1N2C1CC1 |  | RT-A98G | PBMC | RUD (RT-A98G) | 1.3 |
| CC(C)(C)C(=O)c1sc(C(=O)NCCc2ccccc2)c(O)c1O |  | IN-T66I S153Y N155S |  |  | >33 |
| Cc1ccnc2c1NC(=O)c1cccnc1N2C1CC1 | cytopathic effect / XTT | RT-P236L | CEM + CEM-SS | HEPT-resistant (RT P236L) | 2 |
| CC(C)=CCN1Cc2cccc3[nH]c(=S)n(c23)C[C@@H]1C | syncytia | RT-L100I Y181C | CEM | IIIB TIBO R82913 STR-1 (RT L100I Y181C) | ≥250 |
| CCCN(C)C(=O)Oc1nsnc1-c1c(Cl)ccc(N)c1Cl | MTT | RT-K103N | MAGI | IIIB | 2.37 |
| Cc1ccc(NC(=O)CSc2nnc(C)n2-c2c(C)ccc3ccccc23)c(Cl)c1 | luciferase | RT-Y188L | HeLa + HeLa-JC53 | NL4-3 | 200 |
| Nc1nc(=O)n([C@@H]2CO[C@H](CO)S2)cc1F | RT activity | RT-K65R | CBMC | HXB2D (RT-K65R) | 3.21 |
| Cc1cn([C@@H]2O[C@H](CO[Si](C)(C)C(C)(C)C)C3(OS(=O)(=O)C=C3N)[C@H]2O[Si](C)(C)C(C)(C)C)c(=O)n(C)c1=O | syncytia | RT-E138K | CEM | IIIB TSAO-T(RT-E138K) | >1670 |
| O=c1[nH]cnc2c1ncn2[C@H]1CC[C@@H](CO)O1 | p24 | RT-M184V | MT-4 | 126 3TC (RT-M184V) | 3.73 |
| O=c1[nH]cnc2c1ncn2[C@H]1CC[C@@H](CO)O1 |  | RT-K65R F116Y Q151M |  | RT-65R 116Y 151M | 24 |
| C/C=C/CSc1cc(NC(=S)c2ccsc2C)ccc1Cl | cytopathic effect / XTT | RT-Y181C | CEM + CEM-SS | UC38-RS (RT-Y181C) | >10 |
| Nc1ccn([C@H]2CC[C@@H](CO)O2)c(=O)n1 |  | RT-A98G K103R | PBMC | BCF11 | 0.333 |
| O=C(NCc1ccc(F)cc1)c1nc(N2CCCCS2(=O)=O)c2cccnc2c1O |  | INTG-S153 N155S |  |  | 15 |
| C[C@H](Cn1cnc2c(N)ncnc21)OCP(=O)(O)O | luciferase | RT-V118I M184V | HeLa | Recombinant | 1 |
| Cc1occc1C(=S)Nc1ccc(Cl)c(/C=N/OC(C)(C)C)c1 | cytopathic effect / XTT | RT-K103N | CEM + CEM-SS | NL4-3 (RT K103N) | 60 |
| Cc1ccc(NC(=O)CSc2nnc(C)n2-c2ccc(C)c3ccccc23)c(Cl)c1 | luciferase | RT-K103N Y181C | HeLa + HeLa-JC53 | NL4-3 | 16 |
| Cc1ccc(S(=O)(=O)N(CC(C)C)C[C@@H](O)[C@H](Cc2ccccc2)NC(=O)O[C@H]2CO[C@H]3OCC[C@H]32)cc1 | p24 / ELISA | R41K | MT-2 | IIIB | 1.7 |
| Cc1ccc2cc(Cl)cc(-n3c(C)nnc3SCC(=O)Nc3ccc(S(N)(=O)=O)cc3Cl)c2n1 | luciferase | RT-Y188L | HeLa + HeLa-JC53 | NL4-3 | 50 |
| N#Cc1cc2[nH]c3ccccc3c2n(-c2ccc([N+](=O)[O-])cc2)c1=O | luciferase | RT-K103N P225H | HeLa | NNRTI-resistant | 0.3 |
| CCOP(=O)(COc1ccc(C[C@H](NC(=O)O[C@H]2CO[C@H]3OCC[C@H]32)[C@H](O)CN(CC(C)C)S(=O)(=O)c2ccc(OC)cc2)cc1)OCC | ATP | ATV-P36 atazanavir-resistant mutant | MT-2 | IIIB | 0.5 |
| Nc1ncnc2c1ncn2CC(CF)OCP(=O)(O)O | syncytia | RT-L100I Y188H | CEM | IIIB TIBO R82913 STR-B22 (RT L100I Y188H) | 1.33 |
| Cc1ccc(NC(=O)CSc2nnc(C)n2-c2ccc(Cl)c3ccccc23)c(Cl)c1 | luciferase | RT-K103N Y181C | HeLa + HeLa-JC53 | NL4-3 | 190 |
| Cc1cn([C@H]2C[C@H](N=[N+]=[N-])[C@@H](CO)O2)c(=O)[nH]c1=O | p24 / ELISA | I401T R409K D437N | MT-2 | IIIB | 0.9 |
| Cc1cc(S(N)(=O)=O)ccc1NC(=O)COc1ccc(Cl)cc1C(=O)c1cc(Cl)cc(C#N)c1 | β-galactosidase | RT-L100I | MAGI | NNRTI-resistant (RT L100I) | 0.96 |
| Nc1ncnc2c1ncn2CCOCP(=O)(O)O | syncytia | RT-L100I | CEM | IIIB TIBO R82150-resistant (RT L100I) | 2.14 |
| Cc1ccnc2c1NC(=O)c1cccnc1N2C1CC1 | plaque count | RT-M41L Y181C T215Y | HT4 + HT4 LacZ-1 | HXB2 | 167 |

Fold resistance: result on the changed form divided by that on wild type. Rows are shuffled and stem from different studies.